Results published in PMC9202147, “In vitro anti-HIV and cytotoxic effects of pure compounds isolated from Croton macrostachyus Hochst. Ex Delile” (BMC Complementary Medicine and Therapies, 2022).

System: HIV-1IIIB virus
Assay: Anti-HIV activity: inhibition of HIV-1-induced cytopathic effect in MT-4 cells, MTT colorimetric assay
Type: cell-based
Settings: ratio of CC50 to EC50, MT-4 cells
Protocol: The effects of the test compounds in preventing cytopathic effects that occur because of HIV-1 replication were evaluated by MTT colorimetric assay. MT-4 cells suspended at 1 X 10^8 cells/ml were infected with 640 μL of HIV-1IIIB virus at 1.26 X10^8 TCID50/ml. After infection, 200 μl HIV-infected MT-4 cells (1 X10^5 cells/well) in growth media were added to each well. The plates were preincubated for 24 h at 37 °C to allow stabilization. Then, 50 μL of the test compounds (at a concentration of 4 mg/ml) were added to the first column of the well. With a multichannel pipette, 50 μL was transferred (in triplicate) from the wells labeled 1 to wells labeled 2. Such transfers were continued (serial dilution), moving from left to right, changing tips prior to mixing contents of the next column of wells. Finally, 50 μL was discarded from the wells in column 12. Different concentrations ([…]) of test compounds were prepared through serial dilution. Each dilution was tested in triplicates. The microtiter plates were incubated at 37 °C in a 5% CO2 incubator for 5 days. […] After 5 days of incubation, cell viability was determined by the MTT assay described. All compounds were assayed in triplicate.

For `C[C@H](Cn1cnc2c(N)ncnc21)OCP(=O)(O)O` [TDF, Tenofovir, reference compound], the “SI (selective index)” value was 176.5.
